# PubChem BioAssay AID504761 | Drosophila RNAi Screening Center | 2011
# Assay: 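Insect host genes that dengue virus relies on to spread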 (primary screen)
# System: D.Mel-2 cells from Drosophila
# Knock-down reagent: long dsRNA against Drosophila genes
# Conditions: infection with dengue virus type 2; dose and infection time not stated
# Read-out: 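Per well on two replicate plates, imaging gave the percent of cells positive for viral envelope protein, ranked by infection, and a nuclear count of cells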
# Direction: infection score: higher = more virus-infected cells; cell count: higher = more cells in the well
# Rule for the call: 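Very low infection ranking in both replicate wells (chance probability at most 0.065), then a retest showing infection dropped 1.5-fold or more at p below 0.05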
# Meaning of the calls: active = confirmed: knock-down lowers infection; inactive = not picked or not confirmed
# In all, the deposit lists about 22,000 reagents; below is an unselected part of those with a known target gene and a result. In the full data, 116 (0.52%) got an active call. 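Calls depend on retest data that are not deposited; infection was ranked per plate without normalising between plates; the unit of the infection score is not given.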 Raw values vary from plate to plate and are shown uncorrected. Reagents against one gene are numbered here. The record does not give: the amount of reagent, the time to read-out.
predicted target,reagent,"infection score, replicate 1","infection score, replicate 2","cell count, replicate 1","cell count, replicate 2",outcome
snRNP-U1-70K,1,12.9,29.8,5917,5373,inactive
snRNP-U1-70K,2,4.6,2.09,4695,4308,inactive
snRNP-U1-70K,3,11.9,6.41,1793,1170,inactive
CG8012,1,4.79,3.82,5987,5923,inactive
dpr18,1,6.2,4.07,6311,6660,inactive
Uxt,1,1.64,3.1,6647,6671,inactive
san,1,4.02,8.1,5399,5578,inactive
Sap30,1,11.5,5.63,5542,5865,inactive
dj-1beta,1,5.58,3.58,6147,726,inactive
dj-1beta,2,3.44,4.23,6623,6241,inactive
CG9175,1,5.03,0.69,6066,6197,inactive
Gr93d,1,1.92,10.3,6827,6113,inactive
CG3880,1,20,10.8,5627,6859,inactive
CG3880,2,1.42,7.04,5900,6193,inactive
CG3880,3,14.4,15.5,6994,6343,inactive
Nckx30C,1,5.05,2.84,6279,6156,inactive
Nckx30C,2,5.06,10.3,6146,6124,inactive
Nckx30C,3,4.62,2.11,6231,5929,inactive
Nckx30C,4,12.9,18.8,4892,3810,inactive
TwdlV,1,3.35,13.4,6274,6739,inactive
ND-20,1,22.4,4.88,3330,6737,inactive
CG13031,1,3.46,4.98,6801,6806,inactive
Ser12,1,1.99,2.22,5726,6434,inactive
Prosbeta5R1,1,3.53,12.4,1840,4521,inactive
Prosbeta5R1,2,18.9,3.8,6551,6506,inactive
CG32219,1,3.77,0.86,6226,5960,inactive
Ir94e,1,16.2,9.58,6519,6181,inactive
Taf1,1,45.1,34.4,4235,4386,inactive
Taf1,2,55.2,19.9,4511,4604,inactive
CG14015,1,1.99,4.02,6891,6587,inactive
CG14015,2,9.28,1.81,6444,6145,inactive
CG13054,1,1.2,7.34,6243,6107,inactive
CG13054,2,3.87,4.22,595,758,inactive
Smyd3,1,2.96,0.75,877,6922,inactive
Smyd3,2,6.39,7.4,5713,6450,inactive
CG17687,1,0.93,1.67,6209,6346,inactive
CG17687,2,1.59,0.86,6468,5899,inactive
JhI-21,1,12.7,7.3,6656,6533,inactive
JhI-21,2,19.6,15,6012,6064,inactive
dgrn,1,5.7,29.1,1439,4212,inactive
CG13064,1,1.68,1.21,6124,6117,inactive
Cftr,1,3.91,3,6451,6637,inactive
Cftr,2,1.46,3.44,6580,5905,inactive
CG44098,1,1.59,8.04,6864,7078,inactive
CG44098,2,2.21,2.95,6620,6739,inactive
CG44098,3,6.54,9.5,5685,5514,inactive
CG44098,4,4.28,5.92,5905,6287,inactive
Duba,1,3.86,15.4,5177,5749,inactive
CG33128,1,1.11,2.33,5841,6486,inactive
CG33128,2,14.9,8.89,4192,3115,inactive
CG10029,1,1.68,9.14,6890,6643,inactive
Tengl4,1,1.31,3.54,6739,6704,inactive
CG6527,1,1.25,2.41,6075,5843,inactive
trus,1,2.9,10.7,6197,5815,inactive
trus,2,4.62,3.88,6109,5831,inactive
CG3600 (retired record),1,5.47,2.27,5425,5728,inactive
CG3600 (retired record),2,2.63,8.14,6643,6300,inactive
Sara,1,3.87,6.34,6297,6436,inactive

Reformatted: results already given
TwdlV
- infection score, replicate 1: 3.35
- infection score, replicate 2: 13.4
- cell count, replicate 1: 6274
- cell count, replicate 2: 6739
- outcome: inactive

ND-20
- infection score, replicate 1: 22.4
- infection score, replicate 2: 4.88
- cell count, replicate 1: 3330
- cell count, replicate 2: 6737
- outcome: inactive

CG13031
- infection score, replicate 1: 3.46
- infection score, replicate 2: 4.98
- cell count, replicate 1: 6801
- cell count, replicate 2: 6806
- outcome: inactive

Ser12
- infection score, replicate 1: 1.99
- infection score, replicate 2: 2.22
- cell count, replicate 1: 5726
- cell count, replicate 2: 6434
- outcome: inactive

Prosbeta5R1 #1
- infection score, replicate 1: 3.53
- infection score, replicate 2: 12.4
- cell count, replicate 1: 1840
- cell count, replicate 2: 4521
- outcome: inactive
